HIV-1 LAI Vif substitutions under APOBEC3G selection

The measurements come from Langley et al. 2025, preprint (doi:10.1101/2025.10.20.683452).

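A pool of vif mutants was passaged twice, 72 h each, on SupT1 cells that express APOBEC3G. Frequencies after the second round, in three biological replicates, were compared with the merged pool after the first round. Changes do not touch integrase, since the pol overlap was removed.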

Protein: Vif of HIV-1 LAI (a laboratory-adapted subtype B strain). Residues 12-115 were scanned and are shown below; the first letter is residue 12.
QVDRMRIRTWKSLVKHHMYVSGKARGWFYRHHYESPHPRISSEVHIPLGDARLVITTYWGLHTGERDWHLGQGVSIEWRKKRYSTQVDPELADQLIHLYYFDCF

Values are log2 enrichment relative to wild type (0); lower means weaker defence against APOBEC3G and poorer growth.
A change reads original residue, position, new residue.
The median of three replicates is given, with the replicates in brackets.
Input reads are the counts in the merged round-one pool, before selection.
Not every substitution is listed.
Replicates agree only moderately (rank correlation about 0.4-0.65); scores from under about 50 input reads tend to be too high.
Positive scores are uncertain; some enriched variants did not exclude APOBEC3G in a separate test.

{"substitution": "V13R", "input reads": "61", "median log2 enrichment": "0.62 (0.60 4.11 0.62)"}
{"substitution": "I18W", "input reads": "530", "median log2 enrichment": "-3.47 (-2.50 -3.47 -3.69)"}
{"substitution": "K22C", "input reads": "1718", "median log2 enrichment": "-1.98 (-1.26 -3.85 -1.98)"}
{"substitution": "L24F", "input reads": "487", "median log2 enrichment": "-1.01 (-1.01 1.53 -1.25)"}
{"substitution": "H27I", "input reads": "27", "median log2 enrichment": "-0.70 (-0.54 -0.70 -1.03)"}
{"substitution": "H28W", "input reads": "561", "median log2 enrichment": "-1.18 (-1.18 -3.12 1.52)"}
{"substitution": "V31W", "input reads": "1252", "median log2 enrichment": "-1.39 (-1.39 -3.22 2.58)"}
{"substitution": "S32L", "input reads": "545", "median log2 enrichment": "-0.82 (-0.82 1.14 -1.10)"}
{"substitution": "G33N", "input reads": "449", "median log2 enrichment": "-1.98 (-1.98 -2.57 -1.25)"}
{"substitution": "G33P", "input reads": "300", "median log2 enrichment": "-1.57 (-1.12 -2.62 -1.57)"}
{"substitution": "K34R", "input reads": "286", "median log2 enrichment": "3.15 (-0.32 3.15 4.11)"}
{"substitution": "A35I", "input reads": "1174", "median log2 enrichment": "-2.01 (-2.01 -2.66 -1.67)"}
{"substitution": "G37Q", "input reads": "486", "median log2 enrichment": "-0.93 (-0.93 0.96 -1.09)"}
{"substitution": "F39I", "input reads": "706", "median log2 enrichment": "-2.92 (-2.92 -4.76 -2.08)"}
{"substitution": "F39K", "input reads": "497", "median log2 enrichment": "-2.23 (-2.23 -3.39 -1.57)"}
{"substitution": "S46E", "input reads": "3099", "median log2 enrichment": "-1.52 (2.61 -2.68 -1.52)"}
{"substitution": "S46N", "input reads": "879", "median log2 enrichment": "-2.66 (-1.47 -3.06 -2.66)"}
{"substitution": "P47A", "input reads": "512", "median log2 enrichment": "-2.65 (-3.56 -2.65 -1.33)"}
{"substitution": "S53T", "input reads": "939", "median log2 enrichment": "-1.03 (2.91 -2.45 -1.03)"}
{"substitution": "E54N", "input reads": "374", "median log2 enrichment": "-2.45 (-2.45 -4.02 -1.25)"}
{"substitution": "P58C", "input reads": "21", "median log2 enrichment": "1.02 (1.02 -0.97 5.78)"}
{"substitution": "G60T", "input reads": "361", "median log2 enrichment": "-1.80 (-1.46 -2.88 -1.80)"}
{"substitution": "V65K", "input reads": "24", "median log2 enrichment": "-2.40 (-1.98 -3.97 -2.40)"}
{"substitution": "W70N", "input reads": "586", "median log2 enrichment": "-1.26 (-1.26 -2.49 -1.09)"}
{"substitution": "G71D", "input reads": "238", "median log2 enrichment": "-0.78 (-0.73 -2.42 -0.78)"}
{"substitution": "G71F", "input reads": "299", "median log2 enrichment": "-1.30 (-0.94 -2.85 -1.30)"}
{"substitution": "G71V", "input reads": "722", "median log2 enrichment": "-2.94 (-2.94 1.02 -2.94)"}
{"substitution": "H73A", "input reads": "35", "median log2 enrichment": "-2.48 (-2.48 -0.62 -2.97)"}
{"substitution": "T74W", "input reads": "404", "median log2 enrichment": "-4.15 (-1.92 -5.68 -4.15)"}
{"substitution": "G75A", "input reads": "997", "median log2 enrichment": "-2.20 (-2.20 -2.93 -2.12)"}
{"substitution": "G75N", "input reads": "31", "median log2 enrichment": "0.46 (0.46 5.54 -0.48)"}
{"substitution": "E76R", "input reads": "1385", "median log2 enrichment": "-1.53 (-2.60 0.19 -1.53)"}
{"substitution": "E76V", "input reads": "931", "median log2 enrichment": "-1.00 (-1.00 0.43 -1.13)"}
{"substitution": "D78P", "input reads": "546", "median log2 enrichment": "-3.00 (-3.00 -4.99 -2.49)"}
{"substitution": "H80C", "input reads": "416", "median log2 enrichment": "-4.61 (-2.88 -4.61 -4.89)"}
{"substitution": "Q83F", "input reads": "48", "median log2 enrichment": "2.78 (2.78 4.31 0.70)"}
{"substitution": "V85A", "input reads": "392", "median log2 enrichment": "-2.58 (-2.26 -2.58 -3.00)"}
{"substitution": "S86H", "input reads": "96", "median log2 enrichment": "0.92 (5.62 -1.86 0.92)"}
{"substitution": "I87E", "input reads": "490", "median log2 enrichment": "-2.40 (-2.40 1.30 -2.87)"}
{"substitution": "E88R", "input reads": "488", "median log2 enrichment": "-1.04 (0.54 -1.04 -3.59)"}
{"substitution": "K92R", "input reads": "336", "median log2 enrichment": "-1.09 (-1.09 2.37 -2.29)"}
{"substitution": "T96K", "input reads": "342", "median log2 enrichment": "-4.10 (-2.60 -4.10 -4.63)"}
{"substitution": "Q97F", "input reads": "327", "median log2 enrichment": "-2.25 (-1.59 -3.32 -2.25)"}
{"substitution": "Q97G", "input reads": "30", "median log2 enrichment": "-0.67 (-0.67 -4.29 3.10)"}
{"substitution": "P100E", "input reads": "101", "median log2 enrichment": "-0.57 (-0.32 -2.58 -0.57)"}
{"substitution": "L102G", "input reads": "176", "median log2 enrichment": "-3.71 (-1.37 -5.25 -3.71)"}
{"substitution": "A103F", "input reads": "449", "median log2 enrichment": "-2.92 (-2.25 -4.10 -2.92)"}
{"substitution": "L106A", "input reads": "1353", "median log2 enrichment": "1.37 (2.15 -0.77 1.37)"}
{"substitution": "L106H", "input reads": "20", "median log2 enrichment": "-2.14 (-1.69 -2.14 -2.17)"}
{"substitution": "H108I", "input reads": "394", "median log2 enrichment": "1.73 (-2.29 1.91 1.73)"}
{"substitution": "H108V", "input reads": "161", "median log2 enrichment": "-1.00 (-1.00 2.24 -2.82)"}
{"substitution": "H108Y", "input reads": "466", "median log2 enrichment": "-1.28 (-1.28 -3.37 3.36)"}
{"substitution": "F112Q", "input reads": "17", "median log2 enrichment": "-1.95 (-1.47 -3.50 -1.95)"}
{"substitution": "D113L", "input reads": "322", "median log2 enrichment": "-2.27 (-1.99 -6.12 -2.27)"}

4 of these entries, quoted again:

{"substitution": "G71F", "input reads": "299", "median log2 enrichment": "-1.30 (-0.94 -2.85 -1.30)"}
{"substitution": "G37Q", "input reads": "486", "median log2 enrichment": "-0.93 (-0.93 0.96 -1.09)"}
{"substitution": "L106H", "input reads": "20", "median log2 enrichment": "-2.14 (-1.69 -2.14 -2.17)"}
{"substitution": "E76R", "input reads": "1385", "median log2 enrichment": "-1.53 (-2.60 0.19 -1.53)"}